Source: PubChem BioAssay AID2305 (GlaxoSmithKline (GSK), 2010)

Tested on: P. falciparum 3D7 growth, pLDH absorbance
Experiment: blood-stage malaria parasite growth potency – strain 3D7, dose response (AID 2305)

Structure (SMILES): CC(C)(C)c1cc2cc(N(C(=O)c3ccc(C(F)(F)F)cc3)C3CCN(Cc4ccccc4)CC3)ccc2[nH]1
- IC50: 1190 nM

Structure (SMILES): Cn1c(=O)n(C2CCN(CCCC(c3ccc(F)cc3)c3ccc(F)cc3)CC2)c2ccccc21
- IC50: 840 nM
